Legend:
Human Cytomegalovirus = assay: Semi-automated CPE-inhibition assay for HCMV in human foreskin fibroblast cells; type: cell-based; settings: CC50/EC50
Method: (§1) Additional antiviral testing was carried out to test the efficacy of compounds of the invention against human cytomegalovirus (HCMV) and another herpesvirus, Variecella Zoster Virus(VZV). The compounds tested were compound (1), the HCl salt of compound (1), Compounds 211, 43, 213 and 214.

Varicella Zoster Virus = assay: Plaque reduction assay for VZV (Ellen strain); type: cell-based; settings: CC50/EC50
Method: as §1

Question: With `C=C1CN(S(=O)(=O)c2ccc(C)cc2)CCCN(Cc2ccccc2)CCCN(S(=O)(=O)c2ccc(C)cc2)C1.Cl` [1 · HCl] as the compound, how does the “Human Cytomegalovirus SI” value (Human Cytomegalovirus) read?
Answer: 0

Question: What about the “Varicella Zoster Virus SI” value (Varicella Zoster Virus) of the same compound?
Answer: >47.1

Question: For `C=C1CN(S(=O)(=O)c2ccc(C)cc2)CCCN(Cc2ccccc2)CCCN(S(=O)(=O)c2ccc(C)cc2)C1` [Compound 1, 9-Benzyl-3-methylene-1,5-ditosyl-1,5,9-triazacyclododecane], which “Human Cytomegalovirus SI” value (Human Cytomegalovirus) is on record?
Answer: <3.9

Question: What about the “Varicella Zoster Virus SI” value (Varicella Zoster Virus) of the same compound?
Answer: 16.8

Question: Which results are given for `C=C1CN(S(=O)(=O)c2ccc(C)cc2)CCC[N+]([O-])(Cc2ccccc2)CCCN(S(=O)(=O)c2ccc(C)cc2)C1` [Compound 43, 9-Benzyl-3-methylene-1,5-ditosyl-1,5,9-triazacyclododecane-9-oxide]?
Answer: Human Cytomegalovirus SI (Human Cytomegalovirus): 0; Varicella Zoster Virus SI (Varicella Zoster Virus): >7.0

Question: Which results are given for `C=C1CN(S(=O)(=O)c2ccccc2)CCCN(Cc2ccccc2)CCCN(S(=O)(=O)c2ccccc2)C1` [Compound 211, 9-Benzyl-3-methylene-1,5-dibenzenesulfonyl-1,5,9-triazacyclododecane]?
Answer: Human Cytomegalovirus SI (Human Cytomegalovirus): 0; Varicella Zoster Virus SI (Varicella Zoster Virus): >1.8

Question: For `C=C1CN(S(=O)(=O)c2ccc(C)cc2)CCCN(C(=O)OCC)CCCN(S(=O)(=O)c2ccc(C)cc2)C1` [Compound 213, 9-(Ethyloxycarbonyl)-3-methylene-1,5-ditosyl-1,5,9-triazacyclododecane], which “Human Cytomegalovirus SI” value (Human Cytomegalovirus) is on record?
Answer: 55.6

Question: What about the “Varicella Zoster Virus SI” value (Varicella Zoster Virus) of the same compound?
Answer: >1.0

Question: Which “Human Cytomegalovirus SI” value (Human Cytomegalovirus) does the source give for “N-Benzyl-N-[3-(N-2-methyl-2-propenyl-toluenesulfonamido)propyl]-N-(3-toluenesulfonamidopropyl)amine dihydrogen sulfate [Compound 214]” here?
Answer: >68

Question: And the “Varicella Zoster Virus SI” value (Varicella Zoster Virus)?
Answer: 2.7

Source: patent US6342492B1, “Anti-viral triaza compounds and compositions” (The Research Foundation of State University of New York, priority 1995, dated 2002)
